Anti-infective test results gathered from many reports (values: NIAID ChemDB through PubChem).

All rows: tests in culture; agent: Cryptococcus neoformans; endpoint: MIC

Blank or dashed fields: not listed here. Neighbouring rows are from separate reports. Two numbers with a dash give a range or band.

SMILES | strain | result
Cc1cc(C)c(C(=O)/C=C/c2cc3ccccc3nc2Cl)o1 | ATCC 32264 | >50 µg/mL
CCCCCCCCCCOCCC(=O)O |  | 300 µM
COc1ccc(OC)c2c1CCc1[se]nnc1-2 |  | 12.5 µg/mL
CN[C@@H]1[C@H](O[C@@H]2OC[C@@H](O)[C@H](O)[C@H]2O)[C@@H](O)[C@H](O[C@H]2c3cc(C)c(C(N)=O)c(O)c3-c3c(cc4c(c3O)C(=O)c3cc(OC)cc(O)c3C4=O)[C@@H]2O)O[C@@H]1C | IAM 4514 | >100 µg/mL
CC[C@H]1/C=C(\C)[C@H](O)[C@H](C)C[C@H](OC)[C@H]2O[C@@](O)(C(=O)C(=O)N3CCCC[C@H]3C(=O)O[C@H](/C(C)=C/[C@@H]3CC[C@@H](O)[C@H](OC)C3)[C@H](C)[C@@H](O)CC1=O)[C@H](C)C[C@@H]2OC | H99 ΔCNA1 mutant | >42 µg/mL
CCCCCCCCCNC1CCc2cc(O)ccc2C1 |  | 8 µM
CC(C)(C)c1ccc(CN(Cc2cccc3ccccc23)n2ccnc2)cc1 |  | >200 µM
C=C1CC[C@@]2(OC1)O[C@H]1C[C@H]3[C@@H]4CC=C5C[C@@H](O)[C@H](O)[C@@H](O[C@@H]6O[C@H](CO)[C@H](O)[C@H](O)[C@H]6O)[C@]5(C)[C@H]4CC[C@]3(C)[C@H]1[C@@H]2C |  | ≥20 µg/mL
O=C(/C=C/c1ccc(Cl)cc1Cl)c1ccc(Cl)cc1Cl | ATCC 32264 | >50 µg/mL
COc1cc(O)c2c(c1)C(=O)c1c(cc3c(c1O)-c1c(cc(C)c(C(=O)N[C@H](CO)C(=O)O)c1O)[C@H](O[C@@H]1O[C@H](C)[C@H](O)[C@H](O)[C@H]1O)[C@H]3O)C2=O | IAM 4514 | 3.1 µg/mL
CCc1nc([N+]#N)c(C(=O)N2CCCC2)[nH]1 | L29 | 50 µg/mL
CCC(C)CC(C)CCCCCCCCC(=O)N[C@H]1C[C@@H](O)[C@H](NCCN)NC(=O)[C@@H]2[C@@H](O)CCN2C(=O)[C@H]([C@H](O)CCN)NC(=O)[C@H]([C@H](O)[C@@H](O)c2ccc(O)cc2)NC(=O)[C@@H]2C[C@@H](O)CN2C(=O)[C@H]([C@@H](C)O)NC1=O | H99 | 12.5 µg/mL
CCC(C)n1ncn(-c2ccc(N3CCN(c4ccc(OC[C@H]5CO[C@](Cn6cncn6)(c6ccc(Cl)cc6Cl)O5)cc4)CC3)cc2)c1=O | KCTC 7224 | 0.13 µg/mL
N#[N+]c1nc[nH]c1C(=O)N1CCCC1 | L29 | 50 µg/mL
CCC[CH2][Sn](=[O])[CH2]CCC |  | 50 µg/mL
c1ccc2c(c1)CCc1[se]nnc1-2 |  | 12.5 µg/mL
N#CC[n+]1c2ccccc2cc2[nH]c3ccccc3c21 | ATCC 52657 | 31.2 µg/mL
COc1cccc2c1CC(Nc1ccccc1)CC2 |  | 64 µM
CC(C)(C)C1CCC(CN2C3=NC[C@@H](C4CCCCC4)N3C[C@H]2CC2CCCCC2)CC1 | ATCC 32045 | 8–16 µg/mL
c1ccc2c(c1)cc1[nH]c3ccccc3c1[n+]2CC1CC1 | ATCC 52657 | 31.2 µg/mL
O=[N+]([O-])C1Cc2[se]nnc2-c2ccccc21 |  | 12.5 µg/mL
CCCOCCCCCCCCCC(=O)O |  | 300 µM
N#CC(C#N)C(CC(=O)c1ccccc1)c1cc2ccccc2nc1Cl | ATCC 32264 | >50 µg/mL
CCCCCCCCNC1CCc2cccc(O)c2C1 |  | 16 µM
O=C(/C=C/c1ccc([N+](=O)[O-])cc1)c1ccccc1 | ATCC 32264 | >50 µg/mL
C1CCC(C[C@H]2CN=C3N(CCC45CC6CC(CC(C6)C4)C5)[C@@H](CC4CCCCC4)CN32)CC1 | ATCC 32045 | 8–16 µg/mL
CCC[CH2][Sn]([CH2]CCC)([NH]C(Cc1c[nH]c2ccccc12)C(=O)O)[O]C(=O)C(N)Cc1c[nH]c2ccccc12 |  | 12.5 µg/mL
C[C@@H]1CC[C@@]2(OC1)O[C@H]1C[C@H]3[C@@H]4CC=C5C[C@@H](O[C@@H]6O[C@H](CO)[C@H](O[C@@H]7O[C@@H](C)[C@H](O)[C@@H](O)[C@H]7O)[C@@H](O)[C@H]6O[C@@H]6O[C@@H](C)[C@H](O)[C@@H](O)[C@H]6O)CC[C@]5(C)[C@H]4CC[C@]3(C)[C@H]1[C@@H]2C |  | ≥20 µg/mL
CN[C@@H]1[C@H](O[C@@H]2OC[C@@H](O)[C@H](O)[C@H]2O)[C@@H](O)[C@H](O[C@H]2c3cc(C)c(C(=O)OCC(=O)O)c(O)c3-c3c(cc4c(c3O)C(=O)c3cc(OC)cc(O)c3C4=O)[C@@H]2O)O[C@@H]1C | IAM 4514 | >100 µg/mL
CCCCCCCCCCCOCC(=O)O |  | 300 µM
C=C(CCC1(O)O[C@H]2C[C@H]3[C@@H]4CC=C5C[C@@H](O)[C@H](O)[C@@H](O[C@@H]6O[C@H](CO)[C@H](O)[C@H](O)[C@H]6O)[C@]5(C)[C@H]4CC[C@]3(C)[C@H]2[C@@H]1C)CO[C@@H]1O[C@H](CO)[C@@H](O)[C@H](O)[C@H]1O |  | 5 µg/mL
C1CCC(C[C@H]2CN=C3N2C[C@H](C2CCCCC2)N3CCC23CC4CC(CC(C4)C2)C3)CC1 | ATCC 32045 | 16–32 µg/mL
COc1ccc(C(=O)/C=C/c2cc3ccccc3nc2Cl)c(OC)c1 | ATCC 32264 | >50 µg/mL
C1CCC(C[C@H]2CN3C(=NC[C@H]3CC3CCCCC3)N2CCC23CC4CC(CC(C4)C2)C3)CC1 | ATCC 32045 | 4–8 µg/mL
N#[N+]c1nc(-c2ccc(Cl)cc2)[nH]c1C(=O)N1CCCC1 | L29 | 25 µg/mL
CN[C@@H]1[C@H](O[C@@H]2OC[C@@H](O)[C@H](O)[C@H]2O)[C@@H](O)[C@H](O[C@H]2c3cc(C)c(C(=O)NCS(=O)(=O)O)c(O)c3-c3c(cc4c(c3O)C(=O)c3cc(OC)cc(O)c3C4=O)[C@@H]2O)O[C@@H]1C | IAM 4514 | >50 µg/mL
COc1ccc2c(c1)CCC(NCc1ccccc1)C2 |  | 64 µM
CCCCC[n+]1c2ccccc2cc2[nH]c3ccccc3c21 | ATCC 52657 | 31.2 µg/mL
COc1ccc(/C=C/C(=O)c2ccc(C)cc2)cc1 | ATCC 32264 | >50 µg/mL
CN[C@@H]1[C@H](O[C@@H]2OC[C@@H](O)[C@H](O)[C@H]2O)[C@@H](O)[C@H](O[C@H]2c3cc(C)c(C(=O)N[C@H](C)C(=O)O)c(O)c3-c3c(cc4c(c3O)C(=O)c3cc(OC)cc(O)c3C4=O)[C@@H]2O)O[C@@H]1C | IAM 4514 | 0.8 µg/mL
COc1cccc(/C=C/C(=O)c2ccc(Br)cc2)c1OC | ATCC 32264 | >50 µg/mL
CC(C)(C)C1CCC(CN2C3=NC[C@H](CC4CCCCC4)N3C[C@@H]2CC2CCCCC2)CC1 | ATCC 32045 | 8–16 µg/mL
C(=C\c1ccccc1)/CN(Cc1cccc2ccccc12)n1ccnc1 |  | >200 µM
Clc1ccc(C(Cn2ccnc2)OCc2csc3c(Cl)cccc23)c(Cl)c1 | 3 strains | 0.12 µg/mL
Clc1ccc(COC(Cn2ccnc2)c2ccc(Cl)cc2Cl)c(Cl)c1 |  | 1 µg/mL
CN[C@@H]1[C@H](O[C@@H]2OC[C@@H](O)[C@H](O)[C@H]2O)[C@@H](O)[C@H](O[C@H]2c3cc(C)c(C(=O)O)c(O)c3-c3c(cc4c(c3O)C(=O)c3cc(OC)cc(O)c3C4=O)[C@@H]2O)O[C@@H]1C | IAM 4514 | >100 µg/mL
C1CCC([C@H]2CN3C(=NC[C@H]3C3CCCCC3)N2CCC23CC4CC(CC(C4)C2)C3)CC1 | ATCC 32045 | 4–8 µg/mL
C[C@@H]1CC[C@@]2(OC1)O[C@H]1C[C@H]3[C@@H]4CC=C5C[C@@H](O)[C@H](O)[C@@H](O[C@@H]6OC[C@@H](O)[C@H](O)[C@H]6O)[C@]5(C)[C@H]4CC[C@]3(C)[C@@]1(O)[C@@H]2C |  | ≥20 µg/mL
[Cl][Sn]([c]1ccccc1)([c]1ccccc1)[c]1ccccc1 |  | 1.56 µg/mL
C=CC[C@@H]1/C=C(/C)C[C@H](C)C[C@H](OC)[C@H]2O[C@@](O)(C(=O)C(=O)N3CCCC[C@H]3C(=O)O[C@H](/C(C)=C/[C@@H]3CC[C@@H](O)[C@H](OC)C3)[C@H](C)[C@@H](O)CC1=O)[C@H](C)C[C@@H]2OC | H99 | 12.5 µg/mL
COc1ccc(C(=O)/C=C/c2ccc(N(C)C)cc2)cc1OC | ATCC 32264 | >50 µg/mL
c1ccc2nc3c(cc2c1)[nH]c1ccccc13 | ATCC 52657 | >250 µg/mL
CC(C)(C)C1CCC(CN2C3=NC[C@H](C4CCCCC4)N3C[C@H]2CC2CCCCC2)CC1 | ATCC 32045 | 2–4 µg/mL
CN(C/C=C/c1ccccc1)Cc1cccc2ccccc12 | 4 strains | 17.8 µg/mL

The last 5 rows once more:

SMILES | strain | result
C=CC[C@@H]1/C=C(/C)C[C@H](C)C[C@H](OC)[C@H]2O[C@@](O)(C(=O)C(=O)N3CCCC[C@H]3C(=O)O[C@H](/C(C)=C/[C@@H]3CC[C@@H](O)[C@H](OC)C3)[C@H](C)[C@@H](O)CC1=O)[C@H](C)C[C@@H]2OC | H99 | 12.5 µg/mL
COc1ccc(C(=O)/C=C/c2ccc(N(C)C)cc2)cc1OC | ATCC 32264 | >50 µg/mL
c1ccc2nc3c(cc2c1)[nH]c1ccccc13 | ATCC 52657 | >250 µg/mL
CC(C)(C)C1CCC(CN2C3=NC[C@H](C4CCCCC4)N3C[C@H]2CC2CCCCC2)CC1 | ATCC 32045 | 2–4 µg/mL
CN(C/C=C/c1ccccc1)Cc1cccc2ccccc12 | 4 strains | 17.8 µg/mL